# Human monoclonal antibodies against the spike receptor-binding domain (heavy:light variable regions). IC50 against pseudoviruses bearing the spike of naturally observed variants; lower = stronger; >10 µg/ml means not reached at the top dose. No active / inactive call. The stated detection limit is 0.0005 µg/ml; values near or below 0.001 µg/ml lie at the floor of the assay.
# B1: BD56-475 (protein)
# chain 1: EVQLVESGGGLVKPGGSLRLSCAASGFTFSTYSMNWVRQAPGKGLEWVSSISSSSTYIYYADSVKGRFTISRDNAKNSLYLQMNSLRAEDTAVYYCAKFTEVVPEAMNNWFDPWGQGTLVTVSS
# chain 2: EIVLTQSPATLSLSPGERATLSCRASQSVRSYLAWYQQKPGQAPRLLIYDASNRATGIPARFSGSGSGTDFTLTISSLEPEDFAVYYCQQRITFGQGTRLEIK
# B2: BD56-471 (protein)
# chain 1: QMQLVQSGPEVKKPGASVKVSCKASGFTFTTSAVQWVRQAPGQRLEWIGWIVVGSSNTDCAQKFQERVTITGDMSTSTAYMDLSNLRSEDTAVYYCATPDCTNGVCTDAFDIWGQGTMVTVSS
# chain 2: EIVLTQSPGTLSLSPGERATLSCRASQSVRSNYLAWYQQKPGQAPRLLTYGASSRATGIPDRFSGSGSGTDFILIISRLEPEDFAVYYCQQFGNSPWTFGQGTKVEIK
# B3: BD56-482 (protein)
# chain 1: QVQLVESGGGVVQSGRSLRLSCAASGFTFRSHAMHWVRQAPGKGLECVAVIWYDGSNKHYADSVKGRFTISRDNSKNILYLQMNSLRAEDTAIYYCAREGISVGAGGDDAFDIWGQGTMVTVSS
# chain 2: DIQMTQSPSSLSASVGDRVTITCRASQSISTFLNWYQQKPGKAPKLLIYAASSLHSGVPSRFSGSGSGTDFTLTISSLQPEDFATYYCQQSYDSPYTFGQGTNLEIK
# B4: BD56-490 (protein)
# chain 1: QITLKESGPTLVKPTQTLTLTCTFSGFSLSTSGVSVGWIRQPPGQALEWLALIYWDDDERYSPSLRTRLTITKDTSRNQVVLTMTNMDPVDTGTYYCARMTDTSTLFDYWGQGTLVTVSS
# chain 2: QSALTQPASVSGSPGQSITISCTGASSDVGAYNYVSWYQQHPGNAPKVIIYDVTKRPSGVSNRFSGSKSGNTASLTISGLQAQDEADYYCSSYTSSSVVFGGGTKLTVL
# B5: BD56-486 (protein)
# chain 1: LQESGPGLVKPSGTLSLTCAVSGGSITTSSWWTWVRQPPGKGLQWIGEIYHTGSTNYNPSLKSRVTISLDKSKNQFSLRLTSVTAADTAVYYCARALLSDYRDLVGWGQGTLVTVSS
# chain 2: DIQMTQSPSSLSASVGDRVTITCRASQSISSYLNWYQQKPGKAPKLLIYAASHLRSGVPSRFSGSESGTDFTLTISSLQPEDFATYFCHQMYSTPQTFGQGTTVEVK
# B6: BD56-501 (protein)
# chain 1: EVQLVGSGGGLVQPGGSLRLSCAASGFTFSSYEMNWVRQAPGRGLEWVSYISRSGTTTFYTDSVKGRFTISRDNARNSLYLQMNSLRAEDTAVYYCARDSTAWVSFYDYWGQGTLVTVSS
# chain 2: EIVLTQSPDFQSVTPKEKVTITCRASESIGTSLHWYQQKPDQSPKLLIKIASQSFSGVPSRFSGSGSGTDFTLTISSLEAEDAATYYCHQTSSLPYTFGQGTKLEIK
# B7: BD56-479 (protein)
# chain 1: QMQLVQSGPEVRKPGTSVKVSCKASGFTFTNSAVQWVRQARGQRLEWIGWIVVGSGDTNYAQNFQERVTITRDMSTSTAYMELSSLRSEDTAVYYCAANSCSGTTCYDAFDIWGQGTMVTVSS
# chain 2: EIVLTQSPDTLSLSPGERATLSCRASQSVSSSYLAWYQQKPGQAPRLFIYGASSRATGIPDRFFGSGSGTDFTLTISRLEPEDFAFYYCQQYGTSPWTFGQGTKVEIK
# B8: BD56-504 (protein)
# chain 1: EVQLVESGGDLVQPGKSLTLSCTASGFTFEDYAMHWVRRVPGKGLEWVSGVSWNSGIIDYADSVKGRFTISRDNAKTSLYLHMRRLRPEDTALYYCAKGRGSAYDYGSGTYEGGYFDYWGQGTLVTVSS
# chain 2: QSALTQPASVSGSPGQSITISCTGTSSVVGDYNYVSWYQQHPGKAPRLIIYDVRNRPSGVSNRFSGSKSDNTASLTISGLQADDEADYYCSSYSTSTTPWVFGGGTKLTVL
# B9: BD56-491 (protein)
# chain 1: QVHLVESGGGLVKPGGSLRLSCAASGFTFSDYFMCWIRQAPGKGLECIAHISNSGNTKHYADSVKGRFTISRDNGKNSLYLQMSSLRAEDTAMYYCTRRPFGVAEWDGYWYFDLWGRGTLVTVSS
# chain 2: QSVLTQPPSVSAAPGQKVTISCSGSSSNIGNNYVSWYQQLPGTAPTLLIYDNDQRPSGIPDRFSGSKSGTSATLAITGLQTGDEADYYCGTWDSSLSALFGGGTKLTVL
# B10: BD56-477 (protein)
# chain 1: QVQLVQSGSELKKPGASVKVSCKASGYILSDYAMNWVRQAPGQGLEWMGWINTKTGNPKYAQGFTGRLVFSLDTSVSTAYLQISSLKNEDTAVYYCARDSGLLSFGDLFQAFDIWGQGTMVTVS
# chain 2: EIVLTQSPATLSLSPGERATLSCRASQSVSAYFAWYQQKPGQAPRLLIYDASKRAIGIPARFSGSGSGTDFTLTINSLEPEDFAVYYCQQRTNWLWAFGQGTKVEIK
# B11: BD56-480 (protein)
# chain 1: QVQLVQSGSELKKPGASVKVSCKASAYTFTNYAMNWVRQAPGQGLEWMGWINTKTGNPKYAQDFTGRIVFSLDTSVSTAYLQISSLKAEDTAVYYCARDSGLLSFGELFHVFDMWGQGTMVTVSS
# chain 2: EIVLAQSPATLSLSPGERATLSCRASQSISTYFAWYQQKPGQPPRLLIYDTSNRAAGIPARFSGSGSGTDFTLTISSLEPEDFAVYYCLHRSNWLWTFGQGTKVEIK
# B12: BD56-497 (protein)
# chain 1: EVQLVESGGGFIQPGGSLRLSCVVSGFSVSRIYMNWVRQVPGKGLEWVSIIYSGGSTFYADSVKGRFTISRDSSKNTLYLQMNSLRAEDTAVYYCARATYSNYFDYWGQGTLVTVSS
# chain 2: DIQMTQSPSSLSASIGDRVTITCQASQDISNSLHWYQQKPGKAPKLLIHDASILETGVPSRFSGGGSGTDFTFTIISLQPEDIATYYCQQYDNLPSYTFGQGTKLEIK
# Target: SARS-CoV-2 Omicron BA.1 spike pseudovirus
# Test: pseudovirus neutralization IC50; higher = weaker neutralization
# Method: (§1)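 Single-round VSV luciferase pseudovirus mixed with antibody dilutions for 1 h and put on Huh-7 cells for about a day; IC50 from the dose curve.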
row,Binder,pseudovirus neutralization IC50
1,B1,6.35 µg/mL
2,B2,0.001 µg/mL
3,B3,0.00639 µg/mL
4,B4,0.00975 µg/mL
5,B5,0.176 µg/mL
6,B6,3.55 µg/mL
7,B7,0.0368 µg/mL
8,B8,0.161 µg/mL
9,B9,4.06 µg/mL
10,B10,4.94 µg/mL
11,B11,0.0955 µg/mL
12,B12,0.00957 µg/mL

# Target: SARS-CoV-2 Omicron BA.2 spike pseudovirus
# Test: as above
# Method: as §1
row,Binder,pseudovirus neutralization IC50
1,B1,8.15 µg/mL
2,B2,0.00182 µg/mL
3,B3,0.00338 µg/mL
4,B4,0.0013 µg/mL
5,B5,0.204 µg/mL
6,B6,2.78 µg/mL
7,B7,0.0557 µg/mL
8,B8,0.197 µg/mL
9,B9,0.12 µg/mL
10,B10,7.61 µg/mL
11,B11,0.0719 µg/mL
12,B12,0.106 µg/mL

# Target: SARS-CoV-2 Omicron BA.2.75 spike pseudovirus
# Test: as above
# Method: as §1
row,Binder,pseudovirus neutralization IC50
1,B1,> 10 µg/mL
2,B2,0.000852 µg/mL
3,B3,0.00451 µg/mL
4,B4,0.00891 µg/mL
5,B5,0.317 µg/mL
6,B6,4.59 µg/mL
7,B7,0.0331 µg/mL
8,B8,0.199 µg/mL
9,B9,4.3 µg/mL
10,B10,1.11 µg/mL
11,B11,0.0217 µg/mL
12,B12,> 10 µg/mL

# Target: SARS-CoV-2 Omicron BA.5 spike pseudovirus
# Test: as above
# Method: as §1
row,Binder,pseudovirus neutralization IC50
1,B1,> 10 µg/mL
2,B2,0.112 µg/mL
3,B3,4.57 µg/mL
4,B4,0.00197 µg/mL
5,B5,> 10 µg/mL
6,B6,2.85 µg/mL
7,B7,> 10 µg/mL
8,B8,> 10 µg/mL
9,B9,> 10 µg/mL
10,B10,> 10 µg/mL
11,B11,> 10 µg/mL
12,B12,> 10 µg/mL

# Target: SARS-CoV-2 Omicron BQ.1.1 spike pseudovirus
# Test: as above
# Method: as §1
row,Binder,pseudovirus neutralization IC50
1,B1,> 10 µg/mL
2,B2,0.137 µg/mL
3,B3,> 10 µg/mL
4,B4,> 10 µg/mL
5,B5,> 10 µg/mL
6,B6,2.77 µg/mL
7,B7,> 10 µg/mL
8,B8,> 10 µg/mL
9,B9,> 10 µg/mL
10,B10,> 10 µg/mL
11,B11,> 10 µg/mL
12,B12,> 10 µg/mL

# Target: SARS-CoV-2 Omicron XBB spike pseudovirus
# Test: as above
# Method: as §1
row,Binder,pseudovirus neutralization IC50
1,B1,> 10 µg/mL
2,B2,6.19 µg/mL
3,B3,> 10 µg/mL
4,B4,> 10 µg/mL
5,B5,> 10 µg/mL
6,B6,3.21 µg/mL
7,B7,> 10 µg/mL
8,B8,> 10 µg/mL
9,B9,> 10 µg/mL
10,B10,> 10 µg/mL
11,B11,> 10 µg/mL
12,B12,> 10 µg/mL

# Target: SARS-CoV-2 early D614G spike pseudovirus
# Test: as above
# Method: as §1
row,Binder,pseudovirus neutralization IC50
1,B1,1.36 µg/mL
2,B2,0.00175 µg/mL
3,B3,0.00382 µg/mL
4,B4,0.00185 µg/mL
5,B5,0.0262 µg/mL
6,B6,3.61 µg/mL
7,B7,0.00417 µg/mL
8,B8,0.138 µg/mL
9,B9,0.171 µg/mL
10,B10,0.92 µg/mL
11,B11,0.0185 µg/mL
12,B12,0.00483 µg/mL

# — the supplement of paper PMC9931576
